# Assay results published in PMC8145246 (Toxins, 2021).
# Target: MazF-mt9 toxin (M. tb), purified protein (M. tuberculosis) (UniProt P0CL62)
# Experiment: ITC
substance,measurement,value
"MazE-mt9 α4 peptide (Asp63-Gly77, 15 residues)",Kd,87 nM
